Laboratory results published in paper PMC12164381.

Target: Efficient evolution design from the S309 starting point (Table 4, design row 3, the 4th table, row 6)
Assay: SPR

In the case of “SARS-CoV-2 Spike RBD, XBB.1.5 strain (from UniProt P0DTC2) (domain or fragment)”, the pKD is reported as 8.46 -log10(KD).
